Results of unrelated studies side by side (data: NIAID ChemDB).

a–b is a range or a potency band.

SMILES | strain | test | target | dose | cells | measure | method | agent | value
O=S(=O)([O-])c1cc(S(=O)(=O)[O-])c2cc(NS(=O)(=O)c3ccccc3)ccc2c1 | TYPE 3 | culture |  | 10 µg/mL | Human amnion AV3 cells | inhibition | cytopathic effect | Adenovirus | 0%
CCOC(=O)CCCCCOc1cccc(CN(C(=O)c2ccc(-c3cccnc3)cc2)C(C)C)c1 |  | toxicity |  |  | RAJI | CC50 |  |  | >20 µM
Nc1cc(S(=O)(=O)[O-])cc2cc(S(=O)(=O)[O-])ccc12 |  | culture |  | 5 µg/mL | Human conjunctiva cells | inhibition | cytopathic effect | Herpes simplex virus | 0%
CC(C)N(Cc1cccc(OCCCCCC(=O)OC(=O)O)c1)C(=O)c1ccc(-c2cccc(O)c2)cc1 |  | toxicity |  |  | BJ | CC50 |  |  | >20 µM
Cc1sc2nc(N)nc(N)c2c1-c1ccc(Cl)cc1 | TYPE 1 | target | Dihydrofolate reductase |  |  | IC50 |  | Cryptosporidium parvum | >10 µM
CN(C)c1ccc(-c2cncc(N3CCN(c4ccc(Cl)c(Cl)c4)CC3)n2)cc1 |  | target | UL97 kinase |  |  | IC50 |  | Cytomegalovirus | <100 µM
CCC(CC)[C@H](NC(C)=O)[C@@H]1[C@H](O)[C@@H](C(=O)O)C[C@H]1N=C(N)N | Influenza A/Victoria/3/75 (H3N2) | culture |  |  | MDCK | EC50 | visual reading | Influenza A virus | 0.09 µM
O=C(O)c1cnn2c(C3CCCCC3)c(-c3ccoc3)cnc12 |  | target | RNA-dependent RNA polymerase |  |  | IC50 |  | Hepatitis C virus | 1–10 µM
Cc1cccc(CC2CCc3nc(N)nc(N)c3C2)c1 | TYPE 2 | target | Dihydrofolate reductase |  |  | IC50 |  | Cryptosporidium parvum | 0.81 µM
Fc1ccc(N2CCCCC2)c(NC(=S)c2ccncc2)c1 |  | host protein | PAR-1Balpha | 10 µM |  | inhibition | kinase activity |  | 13%
COc1cc(COc2cccc(-c3cnc4c(-c5nn[nH]n5)cnn4c3C3CCCCC3)c2)cc(OC)c1 |  | target | RNA-dependent RNA polymerase |  |  | IC50 |  | Hepatitis C virus | 1–10 µM
CCOC(=O)COc1ccc(C=O)cc1 |  | toxicity |  |  | RAJI | CC50 |  |  | >20 µM
CC(=O)c1ccc(-c2cncc(N3CCN(c4ccccc4F)CC3)n2)cc1 |  | target | UL97 kinase |  |  | IC50 |  | Cytomegalovirus | <10 µM
C=CCCC1=NCC(OC(C)=O)c2cc(OC)c(OC)cc21 |  | toxicity |  |  | HEK 293 | CC50 |  |  | <7.5 µM
c1ccc(Oc2ccc(-c3c(-c4ccccc4)cnc4c(-c5nn[nH]n5)cnn34)cc2)cc1 |  | target | RNA-dependent RNA polymerase |  |  | IC50 |  | Hepatitis C virus | >10 µM
COc1ccc(OC)c(N(C)Cc2cccc3nc(N)nc(N)c23)c1 | TYPE 1 | target | Dihydrofolate reductase |  |  | IC50 |  | Cryptosporidium parvum | >10 µM
CCOC(=O)CCCCCOc1cccc(CN(C(=O)c2ccc(-c3cc(F)cc(OC)c3)cc2)C(C)C)c1 |  | toxicity |  |  | RAJI | CC50 |  |  | >20 µM
O=C(NS(=O)(=O)C(F)(F)F)c1cc2nc(-c3ccco3)c(C3CCCCC3)c(=O)n2[nH]1 |  | target | RNA-dependent RNA polymerase |  |  | IC50 |  | Hepatitis C virus | 1–10 µM
Nc1nc(N)c2c(n1)CCCc1cc(Cl)c(Cl)cc1-2 | TYPE 2 | target | Dihydrofolate reductase |  |  | IC50 |  | Cryptosporidium parvum | >10 µM
CCO/N=C/c1ccc(OCCC2CCN(c3ccc(Cl)nn3)CC2)cc1 | 1963M-CV40 (LDL receptor group 62) | culture |  |  | KB | EC50 | neutral red | Rhinovirus | 0.696 µM
CCCC(C)NC(=O)c1ccc(N(C)Cc2ccc3nc(N)nc(N)c3n2)cc1 | TYPE 2 | target | Dihydrofolate reductase |  |  | IC50 |  | Cryptosporidium parvum | 1.3 µM
COc1cccc(N2CCN(c3cnccn3)C(c3cc4ccccc4o3)C2)c1 |  | target | UL97 kinase | 1 µM |  | inhibition |  | Cytomegalovirus | <50%
COc1ccc(CC2CCc3nc(N)nc(N)c3C2)cc1 | TYPE 2 | target | Dihydrofolate reductase |  |  | IC50 |  | Cryptosporidium parvum | 1.1 µM
O=C(Nc1c(S(=O)(=O)[O-])cc2cc(S(=O)(=O)[O-])cc(O)c2c1O)c1ccccc1 |  | culture |  | 10 µg/mL | Human amnion AV3 cells | inhibition | cytopathic effect | Herpes simplex virus | 10%
CCOC(=O)/C=C1\NCCc2cc3c(cc21)OCO3 |  | toxicity |  |  | RAJI | CC50 |  |  | <7.5 µM
COc1ccc(CO)c(CNc2ccc3nc(N)nc(N)c3c2Cl)c1 | TYPE 1 | target | Dihydrofolate reductase |  |  | IC50 |  | Cryptosporidium parvum | 0.023 µM
FC(F)(F)c1cccc(Oc2ccc(-c3cnc4c(-c5nn[nH]n5)cnn4c3C3CCCCC3)cc2)c1 |  | target | RNA-dependent RNA polymerase |  |  | IC50 |  | Hepatitis C virus | 1–10 µM
Cc1cc(CCCOc2c(C)cc(-c3noc(C(F)(F)F)n3)cc2C)on1 | Isolate 20 | culture |  |  | OHIO HELA-I | EC50 | cytopathic effect / visual reading | Rhinovirus | >1 µg/mL
O=C(Nc1ccc2c(c1)OCO2)c1cc(-c2cccs2)nc2ccccc12 |  | toxicity |  |  | BJ | CC50 |  |  | >20 µM
O=S(=O)(O)c1cc(O)c2c(O)cc(S(=O)(=O)O)cc2c1 |  | culture |  | 5 µg/mL | Human conjunctiva cells | inhibition | cytopathic effect | Herpes simplex virus | 0%
COc1ccc(N2CCN(c3cncc(-c4cccc(C#N)c4)n3)CC2)cc1OC |  | target | UL97 kinase | 10 µM |  | inhibition |  | Cytomegalovirus | >15%
NC(=O)c1cnn2c(C3CCCCC3)c(-c3ccc(OCc4ccccc4)cc3)cnc12 |  | target | RNA-dependent RNA polymerase |  |  | IC50 |  | Hepatitis C virus | 1–10 µM
COc1cc(-c2ccc(N=Nc3ccc4c(S(=O)(=O)O)cc(S(=O)(=O)O)c(N)c4c3O)c(OC)c2)ccc1N=Nc1ccc2c(S(=O)(=O)O)cc(S(=O)(=O)O)c(N)c2c1O |  | culture |  | 10 µg/mL | Human amnion AV3 cells | inhibition | cytopathic effect | Herpes simplex virus | 0%
C=CCc1ccc(O)c(OC)c1 | 3143 | culture |  |  |  | MIC90 | turbidity | Candida albicans | 475 µg/mL
O=S(=O)([O-])c1cc(O)c2ccccc2c1 |  | culture |  | 50 µg/mL | Human amnion AV3 cells | inhibition | cytopathic effect | Herpes simplex virus | 0%
COC(=O)c1cc2ncc(-c3ccc(OCc4ccccc4)cc3)c(C3CCCCC3)n2n1 |  | target | RNA-dependent RNA polymerase |  |  | IC50 |  | Hepatitis C virus | >10 µM
c1ccc(Oc2ccc(-c3cncc(N4CCN(c5ccccn5)CC4)n3)cc2)cc1 |  | target | UL97 kinase |  |  | IC50 |  | Cytomegalovirus | <100 µM
O=S(=O)([O-])c1ccc2c(O)cc(S(=O)(=O)[O-])cc2c1 |  | culture |  | 10 µg/mL | Human conjunctiva cells | inhibition | cytopathic effect | Herpes simplex virus | 0%
Nc1nc(N)c2c(n1)CCC(Cc1ccc(OC(F)(F)F)cc1)C2 | TYPE 2 | target | Dihydrofolate reductase |  |  | IC50 |  | Cryptosporidium parvum | 0.53 µM
c1cc(OC2CCCCC2)cc(-c2cnc3c(-c4nn[nH]n4)cnn3c2C2CCCCC2)c1 |  | target | RNA-dependent RNA polymerase |  |  | IC50 |  | Hepatitis C virus | 1–10 µM
FC(F)(F)c1ccc(-c2cncc(N3CCN(c4cccc(Cl)c4)CC3)n2)cc1 |  | target | UL97 kinase |  |  | IC50 |  | Cytomegalovirus | <100 µM
Nc1ccccc1S(=O)(=O)O | TYPE 3 | culture |  | 10 µg/mL | Human embryonic lung cells | inhibition | cytopathic effect | Adenovirus | 0%
CCOC(=O)CCCCCOc1cccc(CN(C(=O)c2ccc(-c3ccsc3)cc2)C(C)C)c1 |  | toxicity |  |  | RAJI | CC50 |  |  | >20 µM
COc1cccc(COc2ccc(-c3cnc4c(-c5nn[nH]n5)cnn4c3C3CCCCC3)cc2)c1 |  | target | RNA-dependent RNA polymerase |  |  | IC50 |  | Hepatitis C virus | 1–10 µM

For reference, 4 entries again:

SMILES,strain,test,target,dose,cells,measure,method,agent,value
Cc1cccc(CC2CCc3nc(N)nc(N)c3C2)c1,TYPE 2,target,Dihydrofolate reductase,,,IC50,,Cryptosporidium parvum,0.81 µM
CCOC(=O)/C=C1\NCCc2cc3c(cc21)OCO3,,toxicity,,,RAJI,CC50,,,<7.5 µM
O=S(=O)(O)c1cc(O)c2c(O)cc(S(=O)(=O)O)cc2c1,,culture,,5 µg/mL,Human conjunctiva cells,inhibition,cytopathic effect,Herpes simplex virus,0%
COc1ccc(CC2CCc3nc(N)nc(N)c3C2)cc1,TYPE 2,target,Dihydrofolate reductase,,,IC50,,Cryptosporidium parvum,1.1 µM

ECn: concentration that inhibits the pathogen or its effect by n%. Inhibition is in % at the dose shown (toxicity tests: loss of growth or viability). An empty or dashed field is not shown. Rows are shuffled and stem from different studies. ICn is the concentration giving n% inhibition. MIC50, MIC90 and the like: level of inhibition, or share of isolates inhibited. CCn: concentration that lowers growth or viability of the cells by n%.